We go through 1 molecule from patent publication US7081518, “Anti-mesothelin antibodies having high binding affinity” (US Dept. of Health and Human Services, dated 2006).

Among the targets are SS1(scFv)-PE38 (Pseudomonas aeruginosa, UniProt P11439 278-389; P11439 406-638); D8(scFv)-PE38 (Pseudomonas aeruginosa, UniProt P11439 278-389; P11439 406-638); C10(scFv)-PE38 (Pseudomonas aeruginosa, UniProt P11439 278-389; P11439 406-638); E4(scFv)-PE38 (Pseudomonas aeruginosa, UniProt P11439 278-389; P11439 406-638).

B1: recombinant mesothelin (other)
chain: EVEKTACPSGKKAREIDESLIFYKKWELEACVDAALLATQMDRVNAIPFTYEQLDVLKHKLDELYPQGYPESVIQHLGYLFLKMSPEDIRKWNVTSLETLKALLEVNKGHEMSPQVATLIDRFVKGRGQLDKDTLDTLTAFYPGYLCSLSPEELSSVPPSSIWAVRPQDLDTCDPRQLDVLYPKARLAFQNMNGSEYFVKIQSFLGGAPTEDLKALSQQNVSMDLATFMKLRTDAVLPLTVAEVQKLLGPHVEGLKAEERHRPVRDWILRQRQDDLDTLGLGLQGGIPNGYLVLDLSMQEALS
What is called Kd is the equilibrium constant for the complex coming apart. In general, koff refers to a measure of how fast the partners let go of each other. Read a high koff as a short-lived complex. For orientation: kon means a measure of how fast the partners come together. A higher kon goes with fast association. Consider B1, for which the dissociation constant (Kd) was 0.72 nM in the assay with SS1(scFv)-PE38, 0.3 nM with D8(scFv)-PE38, 0.2 nM in the assay with C10(scFv)-PE38 and 3 nM with E4(scFv)-PE38. In addition, the koff was 0.000223 s⁻¹ with SS1(scFv)-PE38, 6.22e-05 s⁻¹ with D8(scFv)-PE38, 6.56e-05 s⁻¹ with C10(scFv)-PE38 and 0.000612 s⁻¹ with E4(scFv)-PE38. Further, the association rate constant (kon) with SS1(scFv)-PE38 was determined as 311000 M⁻¹ s⁻¹; with D8(scFv)-PE38 it was 206000 M⁻¹ s⁻¹; with C10(scFv)-PE38, 308000 M⁻¹ s⁻¹; with E4(scFv)-PE38 it was 211000 M⁻¹ s⁻¹.
